In the assay the test system is Staphylococcus aureus. The assay can be described thus: Antimicrobial activity against community-acquired pbp3-deficient Staphylococcus aureus MW2 ex serotype USA400 by microdilution method. In kind it is functional. The method, boiled down: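 Broth microdilution MIC per CLSI guidelines, inoculum 5 x 10^5 CFU/ml, confirmed by plating serial dilutions. Run in triplicate; three independent clones per mutant. Reported as the median of at least three independent experiments. MBC: clear wells plated onto drug-free tryptic soy agar, 37°C, 24 and 48 h. pEPSA5-carrying strains tested with and without xylose, no chloramphenicol.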
On the technique in general: In broth dilution the organism is exposed to a series of concentrations in liquid medium.

The values that follow come from ChEMBL document CHEMBL1671631, “Staphylococcus aureus PBP4 is essential for beta-lactam resistance in community-acquired methicillin-resistant strains” (2008).

In brackets after ≈: the same amount, converted by molar mass.

In the case of `Cc1onc(-c2ccccc2)c1C(=O)N[C@@H]1C(=O)N2[C@@H]1SC(C)(C)[C@@H]2C(=O)O` [OXACILLIN], 128 µg/mL (≈ 319 µM) was the least that counted as inhibitory (MIC).

Broadly, the MIC is the smallest concentration in the dilution series that meets the test's criterion for growth inhibition.
